# Experimental data taken from patent US20040146520A1, “Materials and methods relating to immune suppression” (priority 2001, published 2004).
# Test system: Flu-specific (MP58-66) CTL
# Assay: CTL apoptosis induced by peptide/MHC multimeric beads
# Type: cell-based, human
# Details: IL-2 20 U/ml, anti-CD28 1 μg/ml, z-VAD 10 μM; 12 hrs
substance,measurement,value
IL-2: cytokine IL-2,effect of added reagent on multimer-induced CTL death,small increase in CTL death
